# Target: HLA-DR1 (Homo sapiens, UniProt P01903+P01911, A100R/D57E/F55L/F60I/F76Y/I96L/L162R/M171V/P40L/Q125E/R42F/V115G/Y59C)
# Assay: biochemical
# Assay type: binding
smiles,measurement,value
CC[C@H](C)[C@H](NC(=O)CNC(=O)[C@@H](NC(=O)[C@@H]1CCCN1C(=O)[C@@H](N)[C@@H](C)O)[C@@H](C)CC)C(=O)N[C@H](C(=O)N[C@@H](CO)C(=O)N[C@@H](C)C(=O)N[C@@H](CCC(N)=O)C(=O)N[C@H](C(=O)N[C@@H](CC(C)C)C(=O)N[C@@H](CO)C(=O)N[C@@H](CCC(=O)O)C(=O)N[C@@H](CCCCN)C(=O)N[C@@H](Cc1ccccc1)C(=O)O)C(C)C)[C@@H](C)CC [J6R (924–938)],IC50,21 nM

# Source: paper PMC3466378 (Journal of immunology (Baltimore, Md. : 1950), 2012)
